# Test results from paper doi:10.1101/2024.05.05.592584 (bioRxiv, 2024).
# Biological target: RaTG13 NTD protein (Bat coronavirus RaTG13, UniProt A0ABF7PLN6)
# Experiment: ELISA
# Details: both partners purified
row,Binder,binding result
1,"C1717 IgG (antibody, V domains shown) VH: QVQLVQSGAEVKKPGSSVKVSCKTSGGTFNSFAINWVRQAPGQGPEWMGRVIPVLEIANYAQKFQGRITITADKSTSTAYMELSSLTSEDTAIYYCARHHIAVAQPYFDYWGQGTLVTVSS VL: not shown",binds
2,"C1520 IgG (antibody, V domains shown) VH: EVQLVESGGGLVQPGGSLRLACVASGFTFSIYEMNWVRQAPGKGLEWVSYITTSGHARYNADSVKGRFTISRDNSKNSFYLQMNSLRAEDTAIYYCARPQYHYYDTSTYHSYGFDIWGQGTMVTVSS VL: QLVLTQSPSASASLGASVNLTCTLSSGHNSYAIAWHQQQPEKGPRYLMSLNSDGSHTKGDGIPDRFSGSSSGAERFLTISSLQSEDEADYYCQTWDTGIRVFGGGTRLTVL",binds
